Results of unrelated studies side by side (data: NIAID ChemDB).

Common to all: host cell toxicity; cells: HEL; endpoint: CC50

Conditions beyond the fields shown may differ between rows. CCn is the concentration with n% toxicity to the cells.

| smiles | value |
|---|---|
| O=c1[nH]c(=O)n([C@@H]2O[C@H](CO)[C@@H](O)[C@@H]2O)cc1I | >423 µM |
| O=c1[nH]cnc2c1ncn2CCOCP(=O)(O)O | 400 µg/mL |
| C=C[C@H]1C[C@@H](n2cnc3c(N)ncnc32)[C@H](O)[C@@H]1O | 50 µg/mL |
| CCCCCCCCCCCCCCCCCCOCCOP(=O)([O-])CO[C@H](CO)Cn1cnc2c(N)nc(N)nc21 | 18.84 µM |
| O=c1[nH]c(=O)n([C@@H]2O[C@H](CO)[C@@H](O)[C@@H]2F)cc1I | 3.1 µM |
| Nc1nc(N)c2ncn(C[C@H]3COP(=O)(OCC(F)(F)F)CO3)c2n1 | ≥219 µM |
| O=c1[nH]c(=O)n([C@@H]2O[C@H](CO)[C@@H](O)[C@@H]2O)cc1/C=C/Cl | >526 µM |
| CCOC(=O)c1ccc(O)c(O)c1 | ≥200 µg/mL |
| Nc1ncnc2c1ncn2[C@@H]1C[C@H](O)[C@@H](O)[C@H]1O | >50 µg/mL |
| O=c1[nH]c(=O)n([C@@H]2O[C@H](CO)[C@@H](O)[C@H]2O)cc1/C=C/Br | 292 µM |
| Nc1nc(N)c2ncn(CC(CO)OCP(=O)(O)O)c2n1 | >200 µg/mL |
| O=c1[nH]c(=O)n([C@@H]2O[C@H](CO)[C@@H](O)[C@@H]2F)cc1/C=C/Br | 413 µM |
| O=C(O)/C=C/c1ccc(O)c(O)c1 | 123 µg/mL |
| O=c1[nH]c(=O)n([C@H]2C[C@H](O)[C@@H](CO)O2)cc1/C=C/Br | 135 µM |
| CCCCOC(=O)c1ccccc1OP1(=O)CO[C@@H](Cn2cnc3c(N)nc(N)nc32)CO1 | 168 µM |
| C[C@@H]1C[C@@H](n2cnc3c(N)ncnc32)[C@H](O)[C@@H]1O | 200 µg/mL |
| CCOC(=O)c1cc(O)c(O)c(O)c1 | 36 µg/mL |
| CC(C)COC(=O)C(O)Cn1cnc2c(N)ncnc21 | 120 µg/mL |
| O=c1[nH]cccc1O | >200 µg/mL |
| CCCCCCCCCCCCCCCCOCCCOP(=O)([O-])CO[C@H](CO)Cn1cnc2c(N)nc(N)nc21 | ≥161 µM |
| CNC[C@H](O)c1ccc(O)c(O)c1 | 79 µg/mL |
| Nc1ncnc2c1ncn2C[C@@H](CO)OCP(=O)(O)O | 20 µg/mL |